Results of unrelated studies side by side (data: NIAID ChemDB).

Common to all: enzyme or target tests

ICn: concentration for n% inhibition. Inhibition is in % at the dose shown (toxicity tests: loss of growth or viability). Neighbouring rows are from separate reports. Fold resistance has wild type as its base. An empty or dashed field is not shown.

SMILES,tested at,protein,measure,setting,agent,changes,strain or isolate,method,value
O=c1cnc2ccccc2n1CCNC(=S)Nc1ccc(Br)cn1,,Reverse transcriptase,Ki,,HIV-1,RT-K103N,,nucleotide incorporation,0.62 µM
Cc1cccc(C)c1OCC(=O)N[C@@H](Cc1ccccc1)[C@H](O)CN1CC[C@@H](Sc2ccncc2)C[C@H]1C(=O)NC(C)(C)C,,Protease,fold resistance,,HIV,PR-L23I V32I M46I I47V I54M A71V I84V,,fluorescence,12400
COc1cc2ccc(=O)oc2c(O[C@@H]2O[C@H](CO)[C@@H](O)[C@H](O)[C@H]2O)c1O,50 µg/mL,gp41,inhibition,,HIV-1,,,ELISA,1%
Oc1cc(O)c2c(c1)O[C@H](c1ccc(O)c(O)c1)[C@H](O)C2,0.5 µg/mL,gp120,inhibition,,HIV-1,,IIIB,ELISA,36%
CCOC(=O)C(C(=O)OCC)c1cn(Cc2cc(F)ccc2F)c2ccc(F)cc12,,Integrase,IC50,,HIV-1,Y143R,,strand transfer / fluorescence,>25 µM
Nc1ncnc2c1ncn2CCOCP(=O)(O)OP(=O)(O)OP(=O)(O)O,,Reverse transcriptase,Ki,,HIV-1,RT-M184V,,nucleotide incorporation / radiometric,0.12 µM
CC[C@H](C)[C@@H](NC(=O)[C@@H](C[C@H](O)[C@H](CC(C)C)NC(=O)[C@H](Cc1cnc[nH]1)NC(=O)[C@H](Cc1ccccc1)NC(=O)[C@@H]1CCCN1C(=O)[C@@H](N)Cc1cnc[nH]1)C(C)C)C(=O)N[C@@H](Cc1cnc[nH]1)C(=O)O,,Protease,Ki,pH 7.0,HIV-2,,,HPLC,>1 µM
CC[C@H]1C(=O)Nc2ccc(F)cc2N1C(=O)OC(C)C,,Reverse transcriptase,IC50,,HIV,RT-N137A,,nucleotide incorporation / radiometric,0.01 µM
Nc1ncc2[nH]cnc2n1,,Tat:TAR/LTR,Ki,,HIV-1,,LAV,,6 µM
Cc1c(Sc2ccccc2)n(COCCO)c(=O)[nH]c1=O,,Reverse transcriptase,IC50,,HIV,RT-K103N Y188L,,,>5 µM
NC[C@H]1O[C@H](O[C@H]2[C@H](O)[C@@H](O)[C@H](N)C[C@@H]2N)[C@H](N)[C@@H](O)[C@@H]1O,100 µM,Rev:RRE,inhibition,,HIV-1,,,gel,100%
Cc1cccc(C)c1OCC(=O)N[C@@H](Cc1ccccc1)[C@H](OC(=O)CCCC(=O)NCC(=O)OC[C@H]1O[C@@H](n2cc(C)c(=O)[nH]c2=O)C[C@@H]1N=[N+]=[N-])C(=O)N1CSC(C)(C)[C@H]1C(=O)NC(C)(C)C,,Protease + Reverse transcriptase,IC50,,HIV-1,,,,<5 µM
NC[C@@H]1O[C@H](O[C@H]2[C@@H](O)[C@H](O[C@@H]3[C@@H](O)[C@H](N)C[C@H](N)[C@H]3O[C@H]3O[C@H](CN)[C@@H](O)[C@H](O)[C@H]3N)O[C@@H]2CO)[C@H](N)[C@@H](O)[C@@H]1O,,Rev:RRE,IC50,,HIV-1,,,gel,<1 µM
CCOCn1c(Cc2ccccc2)c(C(C)C)c(=O)[nH]c1=O,,Reverse transcriptase,IC50,,HIV-2,RT-S102L,EHO,nucleotide incorporation,>1656 µM
O=C(O)C(=O)/C=C(\O)c1cn(Cc2ccc(F)cc2)c2ccc(Br)cc12,,Integrase,fold resistance,,HIV-1,G140S,,strand transfer / fluorescence,1
CC(C(=O)O)c1cccc(Oc2ccccc2)c1,10 µM,Integrase,inhibition,,HIV-1,,,AlphaScreen,2.61%
O=S1(=O)N(Cc2ccc(CO)cc2)[C@H](COc2ccccc2)[C@H](O)[C@@H](O)[C@@H](COc2ccccc2)N1Cc1ccc(CO)cc1,,Protease,Ki,,HIV,PR-V82A I84V L90M,,,0.117 µM
NC[C@@H]1O[C@H](O[C@H]2[C@@H](O)[C@H](O[C@@H]3[C@@H](O)[C@H](N)C[C@H](N)[C@H]3O[C@H]3O[C@H](CO)[C@@H](O)C[C@H]3N)O[C@@H]2CO)[C@H](N)[C@@H](O)[C@@H]1O[C@H]1O[C@H](CO)[C@@H](O)[C@H](O)[C@@H]1O,,Rev:RRE,IC50,,HIV-1,,,gel,<10 µM
O=C1c2cccnc2C(=O)N1CCNC(=S)Nc1ccc(Br)cn1,,Reverse transcriptase,Ki,,HIV-1,RT-L100I,,nucleotide incorporation,0.2 µM
COc1cc2ccc(=O)oc2c(O)c1O,,gp41,IC50,,HIV-1,,,ELISA,>50 µg/mL
Nc1ncnc2c1ncn2[C@H]1CC[C@@H](COP(=O)(O)OP(=O)(O)OP(=O)(O)O)O1,,Reverse transcriptase,Ki,,HIV-1,RT-L74V,,nucleotide incorporation / radiometric,0.61 µM
Cc1cc(SC2=C(O)C[C@@](CCc3ccc(O)cc3)(C(C)C)OC2=O)c(C(C)(C)C)cc1N,1 µM,Protease,inhibition,,HIV,,,HPLC,6.8%
Cc1cc2c(cc1C)n1cccc1c(=O)n2CCNC(=S)Nc1ccc(Br)cn1,,Reverse transcriptase,fold resistance,,HIV-1,RT-Y181I,,nucleotide incorporation,19.8
Cc1cc(S(N)(=O)=O)ccc1NC(=O)COc1ccc(Cl)cc1C(=O)c1cc(Cl)cc(C#N)c1,,Reverse transcriptase,fold resistance,,HIV-1,RT-L100I,,fluorescence,0.46
O=C(/C=C/c1ccc(O)c(O)c1)OC[C@H]1O[C@@H](OCCc2ccc(O)c(O)c2)[C@H](O)[C@@H](O)[C@@H]1O,,gp41,IC50,,HIV-1,,,ELISA,>50 µg/mL
COc1ccc2c(c1)N(C(=O)OC(C)C)[C@@H](CSC)C(=S)N2,,Reverse transcriptase,IC50,,HIV-1,RT-G190E T215Y,,scintillation proximity / radiometric,>29 µM
CCCCCCC[C@H](O)C[C@@H]1CC[C@H]2C(C(=O)O[C@H](C)CCCCCCC[C@@H]3C[C@@H]4CC[C@@H]5C[C@H](C)NC(=[N+]54)N3)=C(C)NC(N)=[N+]12,,Nef,IC50,,HIV-1,,NL4-3,ELISA,<5 µM
CCOc1nc2cccc(C(=O)O)c2n1Cc1ccc(-c2ccccc2-c2nn[nH]n2)cc1,10 µM,Integrase,inhibition,,HIV-1,,,AlphaScreen,42.26%
COC(=O)C(Cc1ccccc1)NC(=O)[C@@H](NC(=O)[C@@H](C[C@H](O)[C@H](CC1CCCCC1)NC(=O)[C@@H](NC(=O)[C@H](Cc1ccccc1)CS(=O)(=O)C(C)(C)C)C(C)C)C(C)C)C(C)C,,Reverse transcriptase,IC50,,HIV-2,RT-E219D,EHO,nucleotide incorporation,>1553 µM
C[C@@](Cc1ccc(O)c(O)c1)(NN)C(=O)O,10 µM,Integrase,inhibition,,HIV-1,,,AlphaScreen,62.02%
Cc1cccc(C)c1OCC(=O)N[C@@H](Cc1ccccc1)[C@H](OC(=O)CCC(=O)NCC(=O)OC[C@H]1O[C@@H](n2cc(C)c(=O)[nH]c2=O)C[C@@H]1N=[N+]=[N-])C(=O)N1CSC(C)(C)[C@H]1C(=O)NC(C)(C)C,,Protease + Reverse transcriptase,IC50,,HIV-1,,,,>5 µM
CNC(=O)[C@@H](NC(=O)[C@H](OCc1ccccc1)[C@H](O)[C@@H](O)[C@@H](OCc1ccccc1)C(=O)N[C@H]1c2ccccc2C[C@H]1O)C(C)C,,Protease,Ki,,HIV,PR-G48V V82A I84V L90M,,,0.069 µM
O=C(O[C@@H]1Cc2c(O)cc(O)cc2O[C@@H]1c1ccc(O)c(O)c1)c1cc(O)c(O)c(O)c1,100 µM,gp120 + CD4,inhibition,,HIV-1,,,fluorescence,0%
O=C(O)C(=O)/C=C(\O)c1cn(Cc2cc(F)ccc2F)c2ccc(F)cc12,,Integrase,IC50,,HIV-1,G140S,,strand transfer / fluorescence,3.4 µM
O=c1c2cccn2c2ccccc2n1CCNC(=S)Nc1ccc(Cl)cn1,,Reverse transcriptase,fold resistance,,HIV-1,RT-L100I,,nucleotide incorporation,9
CCOC(=O)C(C(=O)OCC)c1cn(S(=O)(=O)c2ccc(C)cc2)c2ccc(NC(=O)c3cccc([N+](=O)[O-])c3)cc12,,Integrase,IC50,,HIV-1,Y143R,,strand transfer / fluorescence,24.8 µM
C=CCOC(=O)C1=C(C)NC2=[N+]3[C@@H](CC[C@@H]13)C[C@@H](CCCCC[C@@H](C)OCc1ccccc1)N2,,Nef,IC50,,HIV-1,,NL4-3,ELISA,<5 µM
CCOC(=O)C(C(=O)OCC)c1cn(S(=O)(=O)c2ccc(C)cc2)c2ccc(NC(=O)c3cccc(C)c3O)cc12,,Integrase,fold resistance,,HIV-1,G140S,,strand transfer / fluorescence,1
CC[C@H]1C=CCC[C@@]2(C[C@@H]3CC[C@@H]4[C@H](C(=O)OCc5ccccc5)[C@]5(CCC[C@@H](C)O5)NC(=[N+]34)N2)O1,,Nef,IC50,,HIV-1,,NL4-3,ELISA,<5 µM
NC[C@@H]1O[C@H](O[C@H]2[C@@H](O)[C@H](O[C@@H]3[C@@H](O)[C@H](N)C[C@H](N)[C@H]3O[C@H]3O[C@H](CO)[C@@H](O)[C@H](O)[C@H]3N)O[C@@H]2CO)[C@H](N)[C@@H](O)[C@@H]1O,100 µM,Rev:RRE,inhibition,,HIV-1,,,gel,0%
CC(C)[C@H](NC(=O)c1ccc2ccccc2n1)C(=O)N[C@@H](Cc1ccccc1)[C@H](O)CN1CC[C@@H](SCc2cccnc2)C[C@H]1C(=O)NC(C)(C)C,,Protease,Ki,,HIV,PR-V32I,,fluorescence,0.000039 µM
Nc1ncnc2c1ncn2[C@@H]1O[C@H](COP(=O)(O)OP(=O)(O)OP(=O)(O)O)C[C@@H]1F,,Reverse transcriptase,Ki,,HIV-1,,,nucleotide incorporation / radiometric,2.6 µM
O=c1c2ccccc2sn1-c1ccccc1,,Capsid,IC50,,HIV-1,,,FRET / fluorescence,4.7 µM
O=C(O[C@@H]1Cc2c(O)cc(O)cc2O[C@@H]1c1ccc(O)c(O)c1)c1cc(O)c(O)c(O)c1,2 µg/mL,gp120,inhibition,,HIV-1,,IIIB,ELISA,85%
O=C1N(Cc2ccc(CO)cc2)[C@H](COc2ccccc2)[C@H](O)[C@@H](O)[C@@H](COc2ccccc2)N1Cc1ccc(CO)cc1,,Protease,fold resistance,,HIV,PR-I84V L90M,,fluorescence,0.913
O=C(CO)N[C@@H]([C@@H](O)[C@H](O)[C@H](O)CO)[C@@H](O)C(=O)C(=O)O,200 µM,gp120,inhibition,,HIV-1,,MN,,86.8%
COc1cc(C[C@@]2(O)CO[C@H](c3ccc(O)c(OC)c3)[C@H]2CO)ccc1O,50 µg/mL,gp41,inhibition,,HIV-1,,,ELISA,1.9%
CCOC(=O)C(C(=O)OCC)c1cn(S(=O)(=O)c2ccc(C)cc2)c2ccc(NC(=O)c3cc(F)c(F)c(F)c3)cc12,,Integrase,fold resistance,,HIV-1,G140S,,strand transfer / fluorescence,1
C=CCOC(=O)C1=C(CCCCC[C@@H](C)O[Si](C)(C)C(C)(C)C)NC2=[N+]3[C@H](CC[C@@H]13)C[C@H](C)N2,5 µM,Nef,inhibition,,HIV-1,,NL4-3,ELISA,102.2%
Cc1cn([C@@H]2O[C@H](CO[Si](C)(C)C(C)(C)C)[C@@]3(OS(=O)(=O)C=C3N)[C@H]2O[Si](C)(C)C(C)(C)C)c(=O)[nH]c1=O,,Reverse transcriptase,fold resistance,,HIV,RT-N137H,,nucleotide incorporation / radiometric,0.69
Cc1ccc(S(=O)(=O)n2cc(C(=O)/C=C3\OC(C)(C)OC3=O)c3cc(Br)ccc32)cc1,,Integrase,IC50,,HIV-1,G140S,,strand transfer / fluorescence,4.7 µM
CC(=O)c1ccc(C)cc1NC(C(N)=O)c1c(Cl)cccc1Cl,,Reverse transcriptase,IC50,,HIV-2,RT-S102L E219D,EHO,nucleotide incorporation,>1425 µM
CC(C(=O)O)c1cccc(C(=O)c2ccccc2)c1,10 µM,Integrase,inhibition,,HIV-1,,,AlphaScreen,11.06%
CC(C)=CCOc1cc(NC(=S)c2ccoc2C)ccc1Cl,,Reverse transcriptase,fold resistance,,HIV,RT-N137Y,,nucleotide incorporation / radiometric,0.18
O=c1cc(-c2ccccc2)oc2cc(O)cc(O)c12,10 µg/mL,gp120,inhibition,,HIV-1,,IIIB,ELISA,0%
Cc1cn([C@H]2C=C[C@@H](COP(=O)(O)OP(=O)(O)OP(=O)(O)O)O2)c(=O)[nH]c1=O,,Reverse transcriptase,Ki,,HIV-1,RT-T215Y,,nucleotide incorporation / radiometric,0.68 µM
NC[C@H]1O[C@H](O[C@H]2[C@H](O)[C@@H](O[C@H]3O[C@H](CO)[C@@H](O)[C@H](N)[C@H]3O)[C@H](N)C[C@@H]2N)[C@H](N)C[C@@H]1O,10 µM,Rev:RRE,inhibition,,HIV-1,,,gel,100%
O=c1c2cccn2c2cc(Cl)c(Cl)cc2n1CCNC(=S)Nc1ccc(Br)cn1,,Reverse transcriptase,fold resistance,,HIV-1,RT-Y181I,,nucleotide incorporation,15
CCCCCCCCC[C@@H]1C[C@@H]2CCC3=C(C(=O)O[C@H](C)CCCCC[C@@H]4C[C@@H]5CC[C@@H]6C[C@H](C)NC(=[N+]65)N4)[C@@H](C)NC(=[N+]32)N1,5 µM,Nef,inhibition,,HIV-1,,NL4-3,ELISA,84.2%
C=C(NC(=O)C(=C)NC(=O)c1csc(C2=N[C@@H]3c4csc(n4)[C@H]4NC(=O)c5csc(n5)[C@H]([C@](C)(O)[C@@H](C)O)NC(=O)C5CSC(=N5)/C(=C/C)NC(=O)[C@H]([C@@H](C)O)NC(=O)c5csc(n5)[C@]3(CC2)NC(=O)C(C)NC(=O)C(=C)NC(=O)C(C)NC(=O)C(C(C)CC)NC2C=Cc3c([C@H](C)O)cc(nc3[C@H]2O)C(=O)O[C@@H]4C)n1)C(N)=O,100 µM,Rev:RRE,inhibition,,HIV-1,,,gel,0%